Experimental data taken from article PMC3144219, “Identification of Inhibitors against Mycobacterium tuberculosis Thiamin Phosphate Synthase, an Important Target for the Development of Anti-TB Drugs” (PLoS ONE, 2011).

Sequences of proteins named here, by UniProt entry; tags and fusion partners are left off.
UniProt P9WG75, whole entry: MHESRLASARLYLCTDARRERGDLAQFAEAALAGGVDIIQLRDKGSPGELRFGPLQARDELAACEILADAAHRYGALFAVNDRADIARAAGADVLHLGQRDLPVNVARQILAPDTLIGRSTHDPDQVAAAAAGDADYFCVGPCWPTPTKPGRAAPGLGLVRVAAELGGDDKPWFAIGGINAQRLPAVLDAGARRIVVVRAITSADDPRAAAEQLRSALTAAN

Target: M.tuberculosis thiamin phosphate synthase (MtTPS) (Mycobacterium tuberculosis, UniProt P9WG75)
Experiment: Thiamin phosphate synthase thiochrome assay (inhibition of MtTPS activity)

Compound: O=C(Nc1cccc([N+](=O)[O-])c1)c1cc2ccccc2cc1O [Compound 10, Naphtazol B]
- IC50 (MtTPS activity, HMP-PP 5 µM (the Km value)): 70 µ/ml
- percent inhibition of MtTPS activity (compound at 100 µg/ml, normal assay conditions): greater than 20%
